Anti-infective test results gathered from many reports (values: NIAID ChemDB through PubChem).

Shared fields: tests in culture; organism: Candida tropicalis

Zones are inhibition diameters on agar. Inhibition is in % at the dose shown (toxicity tests: loss of growth or viability). MIC50, MIC90 and the like: level of inhibition, or share of isolates inhibited. An empty or dashed field is not shown. Rows are shuffled and stem from different studies.

SMILES	strain or isolate	method	setting	measure	dose	value
CC1CC(=O)N(c2ccc(Br)cc2)C1=O	CCC 131-2000	broth dilution / turbidity		MIC		250 µg/mL
c1ccc(C(c2ccccc2)n2cncn2)cc1		broth dilution		MFC		>256 µg/mL
Cc1ccc(-n2cc(C(C)(C)O)nn2)cc1C	URM 4262	broth dilution		inhibition	2048 µg/mL	0%
C[C@H]1[C@H](O)[C@@H](C)/C=C/C=C/C=C/C=C/C=C/C=C/C=C/[C@H](O[C@@H]2O[C@H](C)[C@@H](O)[C@H](N)[C@@H]2O)C[C@@H]2O[C@](O)(C[C@@H](O)C[C@@H](O)CC[C@H](O)[C@@H](O)C[C@@H](O)CC(=O)O[C@H]1C)C[C@H](O)[C@H]2C(=O)O	MTCC 184	agar diffusion / agar		zone	2 µg/mL	16 mm
CC(C)(O)c1cn(-c2ccccc2)nn1	URM 1150	broth dilution		inhibition	2048 µg/mL	0%
C[C@@H](c1ncncc1F)[C@](O)(Cn1cncn1)c1ccc(F)cc1F	8662	broth dilution		MIC		0.015 µg/mL
CC(=O)N1CCN(c2ccc(OC[C@H]3CO[C@](Cn4ccnc4)(c4ccc(Cl)cc4Cl)O3)cc2)CC1	10 isolates			MIC50		0.2 µg/mL
Clc1ccc(C(c2ccccc2)N2CCN(CCn3cncn3)CC2)cc1		broth dilution		MFC		32 µg/mL
Clc1ccc(C(Cn2ccnc2)OCc2csc3c(Cl)cccc23)c(Cl)c1	65 isolates	absorbance	48 h	MIC90		4 µg/mL
CC1CC2=C(O1)c1ccccc1C(=O)C2=O	Clinical isolate	broth dilution		MIC		18.7 µg/mL
COc1ccc(N2C(=O)CC(C)C2=O)cc1	CCC 131-2000	broth dilution / turbidity		MIC		125 µg/mL
COc1ccc(C(c2ccc(OC)cc2)n2cncn2)cc1		broth dilution		MFC		>256 µg/mL
CC(C)CC(O)C(=O)O	D 213	broth dilution / visual reading		MFC100		72000 µg/mL
C[C@@H]1C(=O)N(c2ccccc2)C(=O)[C@@H]1C	CCC 131-2000	broth dilution / turbidity		MIC		31.3 µg/mL
COc1cc(O)c2c(c1)C(=O)c1c(cc3c(c1O)-c1c(cc(C)c(C(=O)NC(CO)C(=O)O)c1O)[C@H](OC1OC(C)C(O)C(OC4OCC(O)C(O)C4O)C1O)C3O)C2=O	11 isolates			MIC50		8 µg/mL
CCOc1ccc2nc3cc(N=C4NC(=O)/C(=C\c5ccc([N+](=O)[O-])cc5)S4)ccc3c(N)c2c1	ATCC 8302	broth dilution		MFC		1000 µg/mL
O=C(c1ccccc1)C(c1ccccc1)n1nnc2ccccc21		broth dilution		MFC		>256 µg/mL
CC[C@@H]([C@H](C)O)n1ncn(-c2ccc(N3CCN(c4ccc(OC[C@@H]5CO[C@@](Cn6cncn6)(c6ccc(F)cc6F)C5)cc4)CC3)cc2)c1=O		broth dilution		MIC50		0.06 µg/mL
CC(C)(O)c1cn(-c2ccc3ccccc3c2)nn1	URM 916	broth dilution		inhibition	2048 µg/mL	0%
C[C@@H]1C(=O)N(Cc2ccccc2)C(=O)[C@@H]1C	CCC 131-2000	broth dilution / turbidity		MIC		62.5 µg/mL
C=CCc1ccc(O)c(OC)c1	2863	turbidity		MIC90		495 µg/mL
c1ccc(C(c2ccccc2)n2ccnc2)cc1		broth dilution		MFC		64 µg/mL
CSCC[C@H]1NC(=O)[C@H]2CCCN2C1=O	MTCC 184	agar diffusion / agar		zone	16 µg/mL	20 mm
c1ccc(C(c2ccccc2)n2nnc3ccccc32)cc1		agar		MIC90		>256 µg/mL
CC1C(=O)N(CCc2ccccc2)C(=O)C1C	CCC 131-2000	broth dilution / turbidity		MIC		125 µg/mL
CCC(C)n1ncn(-c2ccc(N3CCN(c4ccc(OC[C@H]5CO[C@](Cn6cncn6)(c6ccc(Cl)cc6Cl)O5)cc4)CC3)cc2)c1=O	10 isolates			MIC50		0.2 µg/mL
CC1CC(=O)N(c2ccc(Cl)cc2)C1=O	CCC 131-2000	broth dilution / turbidity		MIC		250 µg/mL
Clc1ccc(C(c2ccccc2)N2CCN(CCn3ccnc3)CC2)cc1		broth dilution		MFC		>256 µg/mL
CC1CC(=O)N(c2ccc(F)cc2F)C1=O	CCC 131-2000	broth dilution / turbidity		MIC		250 µg/mL
CC(=O)OC[C@H]1O[C@@H](O[C@@H]2[C@@H](N=[N+]=[N-])[C@H](O)[C@H](O)[C@H]3OC(C)(C)O[C@H]32)[C@H](OC(C)=O)[C@@H](OC(C)=O)[C@H]1OC(C)=O	C 131	broth dilution / turbidity		inhibition	7.8 µg/mL	0%
CCCCCCCCCCCCCCCC(=O)NC(CCCCN)C(=O)NC(CCCCN)C(N)=O	4805	broth dilution		MIC		16 µg/mL
CC1CC(=O)N(c2ccccc2)C1=O	CCC 131-2000	broth dilution / turbidity		MIC		125 µg/mL